Pooled drug test results. Numbers come from NIAID ChemDB, via PubChem.

Common to all: growth or infection tests

An empty or dashed field is not shown. MIC50, MIC90 and the like: level of inhibition, or share of isolates inhibited. ECn is the concentration giving n% inhibition of infection, replication or growth. Zone: diameter of growth inhibition. Rows are shuffled and stem from different studies.

SMILES,species,strain,read by,conditions,endpoint,tested at,result
CCOC(=O)C1C(=O)C=C(c2ccc(F)cc2)CC1c1ccc(C2CC(c3ccc(F)cc3)=CC(=O)C2C(=O)OCC)cc1,Candida dubliniensis,Clinical isolate,-,-,MIC,-,25 µg/mL
CN[C@H]1CC[C@@H](c2ccc(Cl)c(Cl)c2)c2ccccc21,Candida lusitaniae,2-367,broth dilution,-,MFC,-,24 µg/mL
CCCCCCCCCCCCCCCC(=O)NC(CCCCN)C(=O)NC(CCCCN)C(N)=O,Candida guilliermondii,4888,broth dilution,-,MIC,-,8 µg/mL
CCC(C)CC(C)CCCCCCCCC(=O)N[C@H]1C[C@@H](O)[C@H](NCCN)NC(=O)[C@@H]2[C@@H](O)CCN2C(=O)[C@H]([C@H](O)CCN)NC(=O)[C@H]([C@H](O)[C@@H](O)c2ccc(O)cc2)NC(=O)[C@@H]2C[C@@H](O)CN2C(=O)[C@H]([C@@H](C)O)NC1=O,Candida orthopsilosis,ATCC 96139,broth dilution,-,MIC,-,0.0312 µg/mL
Nc1ncccc1-c1cc(Cc2ccc(COc3ccccn3)cc2)no1,Candida spp.,Fluconazole-resistant,broth dilution,-,MIC90,-,0.03 µg/mL
O=C1C2=C(OC(CI)C2)C(=O)c2ccccc21,Candida tropicalis,Clinical isolate,broth dilution,-,MIC,-,42.6 µg/mL
COC(=O)C1CC(=O)N(c2cccc(OC3=C(Oc4cccc(N5CC(C(=O)OC)CC5=O)c4)C(=O)c4ccccc4C3=O)c2)C1,Candida tenuis,VCM Y-70,-,-,MIC,-,31.2 µg/mL
CC(=O)N1CCN(c2ccc(OC[C@H]3CO[C@](Cn4ccnc4)(c4ccc(Cl)cc4Cl)O3)cc2)CC1,Candida glabrata,40 isolates,broth dilution,pH 4,EC90,-,>16 µg/mL
CCCCCCn1cc[n+](COCCCCCCOC[n+]2ccn(CCCCCC)c2)c1,Candida krusei,ATCC 6258,agar diffusion,-,MIC100,-,2406 µM
CC(CC(=O)NN=Cc1ccco1)n1c2c(=O)c3ccccc3c(=O)c=2oc2ccccc21,Candida tenuis,VKM Y-70,-,-,MIC,-,62.5 µg/mL
CCCCCCCCn1cc[n+](COCCOC[n+]2ccn(CCCCCCCC)c2)c1,Candida krusei,ATCC 6258,agar diffusion,-,MIC100,-,10 µM
O=C(CCn1ccnc1)c1ccc(-c2ccccc2)cc1,Candida guilliermondii,RTCC1248,broth dilution,-,MIC,-,1 µg/mL
CCOC(=O)/C=C(/C)n1c2c(=O)c3ccccc3c(=O)c=2oc2ccccc21,Candida tenuis,VKM Y-70,-,-,MIC,-,62.5 µg/mL
OB(O)c1ccccc1,Candida tenuis,-,turbidity,-,MFC,-,500 µg/mL
CCCCCCCC/C=C\CCCCCCCC(=O)N[C@H](C(=O)N1C[C@H](C)C[C@H]1C(=O)N[C@H](C(=O)N[C@@H](CCO)C(=O)N[C@@H](C)C=O)C(C)C)[C@@H](C)O,Candida lusitaniae,ATCC34449,broth dilution / visual reading,-,MIC,-,2 µg/mL
Cc1cc(C)n(C(=O)C2CC(=O)N(c3cccc(OC4=C(Oc5cccc(N6CC(C(=O)n7nc(C)cc7C)CC6=O)c5)C(=O)c5ccccc5C4=O)c3)C2)n1,Candida tenuis,VCM Y-70,-,-,MIC,-,62.5 µg/mL
OB1OC(N2CCN(C3OB(O)c4ccccc43)CC2)c2ccccc21,Candida tenuis,-,turbidity,-,MFC,-,0.9 µg/mL
CCOc1ccc2nc3cc(N=C4NC(=O)/C(=C\c5ccc([N+](=O)[O-])cc5)S4)ccc3c(N)c2c1,Candida kefyr,ATCC 8614,broth dilution,-,MFC,-,500 µg/mL
Nc1[nH]c(=O)ncc1F,Candida glabrata,40 isolates,broth dilution,pH 6,MIC,-,0.125 µg/mL
CC(CC(=O)O)Nc1ccccc1Oc1nc2ccccc2nc1Cl,Candida tenuis,VKM Y-70,-,-,MIC,-,125 µg/mL
CCCCN(Cc1cn(Cc2c(Cl)cccc2Cl)nn1)CC(O)(Cn1cncn1)c1ccc(F)cc1F,Candida kefyr,-,-,-,MIC80,-,16 µg/mL
CC(C)CC(O)C(=O)O,Candida dubliniensis,T-98 QC2000,broth dilution,-,EC50,-,18000 µg/mL
O=[N+]([O-])c1ccc(/C=N\O)cc1,Candida lipolytica,-,-,-,MIC,-,3010 µM
C[C@@H](c1ncncc1F)[C@](O)(Cn1cncn1)c1ccc(F)cc1F,Candida glabrata,40 isolates,broth dilution,pH 4,EC90,-,>16 µg/mL
O=C(CCn1ccnc1)c1cccc(C(O)c2ccc(Br)cc2)c1,Candida kefyr,RTCC 1019,broth dilution,-,MIC,-,1 µg/mL
OB1OC(N2CCOCC2)c2ccccc21,Candida tenuis,-,turbidity,-,MFC,-,62.5 µg/mL
N=C(N)c1ccc2nc(-c3ccc(-c4nc5ccc(C(=N)N)cc5[nH]4)[nH]3)[nH]c2c1,Candida albicans,Isolate 17 (strain 12-99),-,-,MFC,-,0.78 µg/mL
CC(=O)N1CCN(c2ccc(OC[C@H]3CO[C@](Cn4ccnc4)(c4ccc(Cl)cc4Cl)O3)cc2)CC1,Candida dubliniensis,D0,agar diffusion / agar,-,zone,20 mg/mL,10 mm
C=CCc1ccc(O)c(OC)c1,Candida albicans,3178,turbidity,-,MIC90,-,495 µg/mL
C[C@H]1[C@H](O)[C@@H](C)/C=C/C=C/C=C/C=C/C=C/C=C/C=C/[C@H](O[C@@H]2O[C@H](C)[C@@H](O)[C@H](N)[C@@H]2O)C[C@@H]2O[C@](O)(C[C@@H](O)C[C@@H](O)CC[C@H](O)[C@@H](O)C[C@@H](O)CC(=O)O[C@H]1C)C[C@H](O)[C@H]2C(=O)O,Candida colliculosa,Ca3,agar diffusion,-,zone,100 µg/disc,20 mm
Clc1ccccc1C(c1ccccc1)(c1ccccc1)n1ccnc1,Candida albicans,10 isolates,broth dilution,pH 6,EC90,-,0.125 µg/mL
CCCCN(Cc1cn(Cc2cccc(Br)c2)nn1)CC(O)(Cn1cncn1)c1ccc(F)cc1F,Candida kefyr,-,-,-,MIC80,-,>64 µg/mL
CCOC(=O)C1C(=O)C=C(c2ccc(Cl)cc2)CC1c1ccc(C2CC(c3ccc(Cl)cc3)=CC(=O)C2C(=O)OCC)cc1,Candida dubliniensis,Clinical isolate,-,-,MIC,-,6.25 µg/mL
CCCCCOc1ccc(-c2cc(-c3ccc(C(=O)N[C@H]4C[C@@H](O)[C@@H](O)NC(=O)[C@@H]5[C@@H](O)[C@@H](C)CN5C(=O)[C@H]([C@H](O)CC(N)=O)NC(=O)[C@H]([C@H](O)[C@@H](O)c5ccc(O)c(OS(=O)(=O)O)c5)NC(=O)[C@@H]5C[C@@H](O)CN5C(=O)[C@H]([C@@H](C)O)NC4=O)cc3)no2)cc1,Candida guilliermondii,RC-401,broth dilution,-,EC50,-,0.5 µg/mL
C[C@H]1[C@H](O)[C@@H](C)/C=C/C=C/C=C/C=C/C=C/C=C/C=C/[C@H](O[C@@H]2O[C@H](C)[C@@H](O)[C@H](N)[C@@H]2O)C[C@@H]2O[C@](O)(C[C@@H](O)C[C@@H](O)CC[C@H](O)[C@@H](O)C[C@@H](O)CC(=O)O[C@H]1C)C[C@H](O)[C@H]2C(=O)O,Candida guilliermondii,-,broth dilution,-,MIC,-,6.25 µg/mL
O=C1S/C(=C\c2ccoc2)C(=O)N1CC(O)(Cn1nccn1)c1ccc(F)cc1F,Candida colliculosa,Fluconazole-resistant 0710922,-,-,MIC50,-,1.16 µg/mL
COc1ccc(-c2cc(-c3ccc(F)cc3)nc(NC(=O)CN3CCOCC3)n2)cc1,Candida spp.,Strains 7 and 7,-,-,MIC,-,50 µg/mL
CCCCCCCCCCCCCCCCn1cc[n+](COCCCCCOC[n+]2ccn(CCCCCCCCCCCCCCCC)c2)c1,Candida krusei,ATCC 6258,agar diffusion,-,MIC100,-,6 µM
CCCCN(Cc1cn(Cc2cccc(Cl)c2)nn1)CC(O)(Cn1cncn1)c1ccc(F)cc1F,Candida kefyr,-,-,-,MIC80,-,0.0156 µg/mL
Cc1ccc(C)n1NC(=O)C1CC(=O)N(c2cccc(OC3=C(Oc4cccc(N5CC(C(=O)Nn6c(C)ccc6C)CC5=O)c4)C(=O)c4ccccc4C3=O)c2)C1,Candida tenuis,VCM Y-70,-,-,MIC,-,15.6 µg/mL
CN[C@@H]1[C@H](O[C@H]2[C@H](O[C@H]3[C@H](O)[C@@H](O)[C@H](N=C(N)N)[C@@H](O)[C@@H]3N=C(N)N)O[C@@H](C)[C@]2(O)C=O)O[C@@H](CO)[C@H](O)[C@H]1O,Candida spp.,-,agar diffusion / agar,-,zone,450 µg/well,12.4 mm
O=C1c2ccccc2CC1Cn1ccnc1,Candida guilliermondii,RTCC1248,broth dilution,-,MIC,-,>64 µg/mL
CCCCN(Cc1cn(Cc2cccc(C#N)c2)nn1)CC(O)(Cn1cncn1)c1ccc(F)cc1F,Candida kefyr,-,-,-,MIC80,-,4 µg/mL
COc1cc2oc3cc(O)cc(O)c3c(=O)c2c2c1OC(C)(C)C=C2,Candida spp.,-,broth dilution,-,MIC,-,>64 µg/mL
CC(C)CC(=O)C(=O)O,Candida dubliniensis,T-98 QC2000,broth dilution,-,MFC100,-,>72000 µg/mL
CCCCN(Cc1cn(Cc2ccccc2Br)nn1)CC(O)(Cn1cncn1)c1ccc(F)cc1F,Candida kefyr,-,-,-,MIC80,-,0.0156 µg/mL
CC(=O)CC(C)n1c2c(=O)c3ccccc3c(=O)c=2oc2ccc(Cl)cc21,Candida tenuis,VKM Y-70,-,-,MIC,-,125 µg/mL
CCOC(=O)C1C(=O)C=C(c2ccccc2)CC1c1ccc(C2CC(c3ccccc3)=CC(=O)C2C(=O)OCC)cc1,Candida dubliniensis,Clinical isolate,-,-,MIC,-,6.25 µg/mL
OC(CCn1ccnc1)c1cccc(C(O)c2ccc(Br)cc2)c1,Candida guilliermondii,RTCC1248,broth dilution,-,MIC,-,64 µg/mL
CCCCN(Cc1cn(Cc2cccc([N+](=O)[O-])c2)nn1)CC(O)(Cn1cncn1)c1ccc(F)cc1F,Candida kefyr,-,-,-,MIC80,-,0.0625 µg/mL
Cc1ccc(/C=N/Nc2ccnc3cc(Cl)ccc23)cc1,Candida famata,-,-,-,MIC,-,40 µg/mL
COC(=O)C1CC(=O)N(c2cccc(OC3=C(Cl)C(=O)c4ccccc4C3=O)c2)C1,Candida tenuis,VCM Y-70,-,-,MIC,-,62.5 µg/mL
Cc1ccc(C(O)c2cccc(C(=O)CCn3ccnc3)c2)cc1,Candida kefyr,RTCC 1019,broth dilution,-,MIC,-,1 µg/mL
C[C@@H](c1ncncc1F)[C@](O)(Cn1cncn1)c1ccc(F)cc1F,Candida tropicalis,8684,broth dilution,-,MIC,-,0.015 µg/mL
Fc1cc(F)c(B2Oc3ccccc3O2)c(F)c1,Candida tenuis,-,turbidity,-,MIC,-,125 µg/mL
CCC(C)n1ncn(-c2ccc(N3CCN(c4ccc(OC[C@H]5CO[C@](Cn6cncn6)(c6ccc(Cl)cc6Cl)O5)cc4)CC3)cc2)c1=O,Candida utilis,-,agar diffusion,-,zone,100 µg,15 mm

Repeating the final 4 entries:

SMILES,species,strain,read by,conditions,endpoint,tested at,result
Cc1ccc(C(O)c2cccc(C(=O)CCn3ccnc3)c2)cc1,Candida kefyr,RTCC 1019,broth dilution,-,MIC,-,1 µg/mL
C[C@@H](c1ncncc1F)[C@](O)(Cn1cncn1)c1ccc(F)cc1F,Candida tropicalis,8684,broth dilution,-,MIC,-,0.015 µg/mL
Fc1cc(F)c(B2Oc3ccccc3O2)c(F)c1,Candida tenuis,-,turbidity,-,MIC,-,125 µg/mL
CCC(C)n1ncn(-c2ccc(N3CCN(c4ccc(OC[C@H]5CO[C@](Cn6cncn6)(c6ccc(Cl)cc6Cl)O5)cc4)CC3)cc2)c1=O,Candida utilis,-,agar diffusion,-,zone,100 µg,15 mm